Pooled drug test results. Numbers come from NIAID ChemDB, via PubChem.

Shared fields: tests in culture; organism: Mycobacterium avium

a–b is a range or a potency band. Neighbouring rows are from separate reports. MIC50, MIC90 and the like: level of inhibition, or share of isolates inhibited. An empty or dashed field is not shown.

structure	setting	read by	measure	strain	result
O=C(Nc1ccc(C(F)(F)F)cc1)c1cc(Cl)ccc1OP(=O)(c1ccccc1)c1ccccc1	14 d	-	MIC	MY330/88	8 µM
CC(=O)O[C@H]1C[C@@]2(C)[C@@H](C[C@@H](O)[C@H]3[C@@]4(C)CC[C@@H](O)[C@@H](C)[C@@H]4CC[C@@]32C)/C1=C(\CCC=C(C)C)C(=O)O	-	-	Mean MIC	ATCC 25291	>24 µg/mL
O=C(Nc1ccc(Cl)cc1)c1ccccc1O	-	-	MIC	MY330/88	31 µM
CC(N)C1CCN(c2nc3c(cc2F)c(=O)c(C(=O)O)cn3C2CC2)C1	-	-	MIC	PI2/8	0.12 µg/mL
NC1CCN(c2c(F)cc3c(=O)c(C(=O)O)cn(C4CC4)c3c2F)C1	-	-	MIC	1915112	16 µg/mL
O=C(O)c1cn(-c2ccc(F)cc2)c2cc(N3CCNCC3)c(F)cc2c1=O	-	-	MIC90	22 strains	128 µg/mL
CCn1cc(C(=O)O)c(=O)c2cc(F)c(N3CCC(CNCCO)C3)c(F)c21	-	-	MIC	PI4/44	32 µg/mL
O=C(O)c1cn(C2CC2)c2c(F)c(N3CCS(=O)(=O)CC3)c(F)cc2c1=O	-	-	MIC	TMC 1403	≤0.25 µg/mL
O=c1oc2ccccc2c(=O)n1-c1ccc(Br)cc1	-	-	MIC	MY330/88	31 µM
O=C(Nc1ccc(Br)cc1)c1cc(Cl)ccc1OP(=O)(c1ccccc1)c1ccccc1	7 d	-	MIC	MY330/88	16 µM
CC1=CC(=O)c2c(O)cccc2C1=O	-	-	MBC	MAC104	12.5 µg/mL
CN1CCN(c2cc3c(cc2F)c(=O)c(C(=O)O)cn3-c2ccc(F)cc2)CC1	-	-	MIC50	22 strains	8 µg/mL
O=C(Nc1ccc(Cl)cc1)c1cc(Cl)ccc1OP(=O)(Oc1ccccc1)Oc1ccccc1	14 d	-	MIC	MY330/88	16 µM
C[C@@H]1CN(c2c(F)c(N)c3c(=O)c(C(=O)O)cn(C4CC4)c3c2F)C[C@H](C)N1	-	-	Mean MIC	ATCC 25291	8 µg/mL
CCc1cc(C(N)=S)ccn1	-	-	MIC	3090-C clarithromycin-resistant	4 µg/mL
CCCc1cnc(C(=O)/C=C/c2ccc(Cl)cc2)cn1	-	absorbance	MIC	Chester	12.5 µg/mL
Cc1cc(-c2cc3c(cc2F)c(=O)c(C(=O)O)cn3C2CC2)cc(C)n1	-	-	MBC	453	4 µg/mL
CC[C@H]1OC(=O)[C@H](C)[C@@H](O[C@H]2C[C@@](C)(OC)[C@@H](O)[C@H](C)O2)[C@H](C)[C@@H](O[C@@H]2O[C@H](C)C[C@H](N(C)C)[C@H]2O)[C@](C)(OC)C[C@@H](C)C(=O)[C@H](C)[C@@H](O)[C@]1(C)O	-	-	MIC50	Clinical isolate	<4 µg/mL
CCc1cc(C(N)=S)ccn1	-	-	Mean MIC	ATCC 25291	>4.5 µg/mL
O=c1oc2ccccc2c(=O)n1-c1ccccc1	-	-	MIC	MY330/88	125 µM
CCn1cc(C(=O)O)c(=O)c2cc(F)c(-n3cccc3)cc21	-	-	MIC90	22 strains	64 µg/mL
O=C(Nc1cccc([N+](=O)[O-])c1)c1ccccc1O	-	-	MIC	MY330/88	>31 µM
CC(C)Cc1cnc(C(=O)/C=C/c2ccccc2Br)cn1	-	absorbance	MIC	Chester	>100 µg/mL
O=C(O)c1cn(C2CC2)c2c(F)c(N3CCNCC3)c(F)cc2c1=O	-	-	MIC	TMC 1403	≤0.25 µg/mL
O=C(O)c1cn(C2CC2)c2c(F)c(N3CCC(N4CCCC4)C3)c(F)cc2c1=O	-	-	MIC	PI12/39	0.25 µg/mL
O=C(/C=C/c1ccccc1F)c1cnccn1	-	absorbance	MIC	Chester	100 µg/mL
CO[C@H]1/C=C/O[C@@]2(C)Oc3c(C)c(O)c4c(=O)c(c5oc6cc(N7CCN(CC(C)C)CC7)cc(=O)c6nc5c4c3=C2O)NC(=O)/C(C)=C\C=C\[C@H](C)[C@H](O)[C@@H](C)[C@@H](O)[C@@H](C)[C@H](OC(C)=O)[C@@H]1C	-	-	MBC	453	0.125 µg/mL
CCCCc1cnc(C(=O)/C=C/c2ccccc2Br)cn1	-	absorbance	MIC	Chester	>100 µg/mL
CO[C@H]1/C=C/O[C@@]2(C)Oc3c(C)c(O)c4c(O)c(c(/C=N/N5CCN(C)CC5)c(O)c4c3C2=O)NC(=O)/C(C)=C\C=C\[C@H](C)[C@H](O)[C@@H](C)[C@@H](O)[C@@H](C)[C@H](OC(C)=O)[C@@H]1C	-	-	MIC90	Clinical isolate	8 µg/mL
CO[C@H]1/C=C/O[C@@]2(C)Oc3c(C)c(O)c4c(O)c(c(/C=N/N5CCN(C)CC5)c(O)c4c3C2=O)NC(=O)/C(C)=C\C=C\[C@H](C)[C@H](O)[C@@H](C)[C@@H](O)[C@@H](C)[C@H](OC(C)=O)[C@@H]1C	-	-	MIC	Isolate 90-0177	30 µg/mL
O=C(Nc1ccc(Cl)c(Cl)c1)c1cc(Cl)ccc1OP(=O)(c1ccccc1)c1ccccc1	14 d	-	MIC	MY330/88	32 µM
Oc1ccc(O)cc1	-	-	MBC	MAC104	3200 µg/mL
CO[C@H]1/C=C/O[C@@]2(C)Oc3c(C)c(O)c4c(O)c(c(/C=N/N5CCN(C)CC5)c(O)c4c3C2=O)NC(=O)/C(C)=C\C=C\[C@H](C)[C@H](O)[C@@H](C)[C@@H](O)[C@@H](C)[C@H](OC(C)=O)[C@@H]1C	-	-	MIC	6-28	10 µg/mL
CC(C)(C)n1cc(C(=O)O)c(=O)c2cc(F)c(N3CCNCC3)nc21	-	-	MIC	1915112	4 µg/mL
O=C1C=CC(=O)c2ccccc21	-	-	MBC	MAC104	400 µg/mL
O=C(O)c1cn(C2CC2)c2c(F)c(N3CCSCC3)c(F)cc2c1=O	-	-	MIC	1915112	2–4 µg/mL
CO[C@H]1/C=C/O[C@@]2(C)Oc3c(C)c(O)c4c(O)c(c(/C=N/N5CCN(C)CC5)c(O)c4c3C2=O)NC(=O)/C(C)=C\C=C\[C@H](C)[C@H](O)[C@@H](C)[C@@H](O)[C@@H](C)[C@H](OC(C)=O)[C@@H]1C	-	-	MIC	3011-C clarithromycin-resistant	1 µg/mL
CC1=C(C)C(=O)c2ccccc2C1=O	-	-	MBC	MAC104	400 µg/mL
O=C(Nc1ccc(Cl)cc1)c1cc(Cl)ccc1OP(=O)(OCc1ccccc1)OCc1ccccc1	14 d	-	MIC	MY330/88	62.5 µM
NNC(=O)c1ccncc1	-	absorbance	MIC	Chester	3.13–6.25 µg/mL
CC[C@H]1OC(=O)[C@H](C)[C@@H](O[C@H]2C[C@@](C)(OC)[C@@H](O)[C@H](C)O2)[C@H](C)[C@@H](O[C@@H]2O[C@H](C)C[C@H](N(C)C)[C@H]2O)[C@](C)(O)C[C@@H](C)CN(C)[C@H](C)[C@@H](O)[C@]1(C)O	-	-	MIC	1435-C clarithromycin-resistant	>512 µg/mL
CCCCc1cnc(C(=O)/C=C/c2ccc(Cl)cc2)cn1	-	absorbance	MIC	Chester	12.5 µg/mL
CCn1cc(C(=O)O)c(=O)c2ccc(N3CC(O)C(O)C(O)C3)nc21	-	-	MIC	PI2/8	>32 µg/mL
CC(C)N=c1cc2n(-c3ccc(Cl)cc3)c3ccccc3nc-2cc1Nc1ccc(Cl)cc1	-	-	MIC	3090-C clarithromycin-resistant	0.12 µg/mL
CCCCCc1cnc(C(=O)/C=C/c2ccc(Br)cc2)cn1	-	absorbance	MIC	Chester	>50 µg/mL
NCC[C@H](O)C(=O)N[C@@H]1C[C@H](N)[C@@H](O[C@H]2O[C@H](CN)[C@@H](O)[C@H](O)[C@H]2O)[C@H](O)[C@H]1O[C@H]1O[C@H](CO)[C@@H](O)[C@H](N)[C@H]1O	-	-	Mean MIC	ATCC 25291	6.25 µg/mL
CNn1cc(C(=O)O)c(=O)c2cc(F)c(N3CCN(C)CC3)cc21	-	-	MIC50	22 strains	16 µg/mL
NCC[C@H](O)C(=O)N[C@@H]1C[C@H](N)[C@@H](O[C@H]2O[C@H](CN)[C@@H](O)[C@H](O)[C@H]2O)[C@H](O)[C@H]1O[C@H]1O[C@H](CO)[C@@H](O)[C@H](N)[C@H]1O	-	-	MIC50	Clinical isolate	16 µg/mL

7 of the rows above, restated:

NNC(=O)c1ccncc1 ; read by: absorbance ; measure: MIC ; strain: Chester ; result: 3.13–6.25 µg/mL
CCCCCc1cnc(C(=O)/C=C/c2ccc(Br)cc2)cn1 ; read by: absorbance ; measure: MIC ; strain: Chester ; result: >50 µg/mL
CCCc1cnc(C(=O)/C=C/c2ccc(Cl)cc2)cn1 ; read by: absorbance ; measure: MIC ; strain: Chester ; result: 12.5 µg/mL
CCCCc1cnc(C(=O)/C=C/c2ccccc2Br)cn1 ; read by: absorbance ; measure: MIC ; strain: Chester ; result: >100 µg/mL
CCn1cc(C(=O)O)c(=O)c2ccc(N3CC(O)C(O)C(O)C3)nc21 ; measure: MIC ; strain: PI2/8 ; result: >32 µg/mL
CC(=O)O[C@H]1C[C@@]2(C)[C@@H](C[C@@H](O)[C@H]3[C@@]4(C)CC[C@@H](O)[C@@H](C)[C@@H]4CC[C@@]32C)/C1=C(\CCC=C(C)C)C(=O)O ; measure: Mean MIC ; strain: ATCC 25291 ; result: >24 µg/mL
NCC[C@H](O)C(=O)N[C@@H]1C[C@H](N)[C@@H](O[C@H]2O[C@H](CN)[C@@H](O)[C@H](O)[C@H]2O)[C@H](O)[C@H]1O[C@H]1O[C@H](CO)[C@@H](O)[C@H](N)[C@H]1O ; measure: MIC50 ; strain: Clinical isolate ; result: 16 µg/mL